Laboratory results: PubChem BioAssay AID624099 (ICCB-Longwood, 2012)
The deposit covers about 21,000 reagents; this is a random part of them. Over the whole deposit, 497 (2.4%) were called active. 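Higher z means weaker E2 silencing; only reporter increases were scored, and knock-downs that hurt cell survival may mask genuine repressor factors.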 A number with no mark means an inactive call.

Purpose: 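Knock-downs relieving repression by E2 of an HPV18 LCR luciferase reporter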 (primary screen)
System: human C33A cervical carcinoma cells (HPV-negative) stably expressing BPV1 E2 and an HPV18 LCR luciferase reporter
Reagent: siRNA pool against human genes, 40 nM
Duration: 72 h
Detection: 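Per-well luciferase luminescence, z-scored on each plate against the plate mean and SD with control wells left out, then averaged across three replicate plates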
Scale: mean z-score and z-score: higher = stronger reporter signal, weaker E2 silencing
Rule for the call: 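Hit if mean z-score reaches 2 and two or more of three replicate z-scores also reach 2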

| target | mean z-score | z-score, replicate A | z-score, replicate B | z-score, replicate C |
| --- | --- | --- | --- | --- |
| NDUFS3 (NADH:ubiquinone oxidoreductase core subunit S3) | 0.41 | -0.01 | 0.56 | 0.67 |
| LOC344165 (retired record) | 0.12 | 0.07 | 0.07 | 0.22 |
| NEUROD1 (neuronal differentiation 1) | -0.6 | -0.62 | -0.79 | -0.39 |
| SCUBE2 (signal peptide, CUB domain and EGF like domain containing 2) | 0.32 | 0.85 | 0.42 | -0.3 |
| ZDHHC13 (zDHHC palmitoyltransferase 13) | -0.86 | -1.02 | -0.75 | -0.82 |
| KRTAP21-1 (keratin associated protein 21-1) | 0.9 | 1.34 | 0.6 | 0.75 |
| GPR21 (G protein-coupled receptor 21) | -0.31 | -0.19 | -0.17 | -0.58 |
| LOC400768 (retired record) | -0.01 | 0.42 | -0.09 | -0.35 |
| FNDC8 (fibronectin type III domain containing 8) | 0.2 | 0.15 | 0.27 | 0.17 |
| PHETA2 (PH domain containing endocytic trafficking adaptor 2) | -0.64 | -0.7 | -0.48 | -0.73 |
| VMP1 (vacuole membrane protein 1) | 1.68 | 1.3 | 1.67 | 2.08 |
| DCBLD1 (discoidin, CUB and LCCL domain containing 1) | 0.07 | -0.35 | 0.06 | 0.51 |
| RPS7P4 (ribosomal protein S7 pseudogene 4) | -2.17 | -2.27 | -2.31 | -1.93 |
| GALNT8 (polypeptide N-acetylgalactosaminyltransferase 8) | 0.12 | 0.41 | -0.37 | 0.32 |
| LRRC37A4P (leucine rich repeat containing 37 member A4, pseudogene) | 0.79 | 1.42 | 0.69 | 0.25 |
| KLHL42 (kelch like family member 42) | 1.32 | 1.17 | 1.28 | 1.51 |
| ETHE1 (ETHE1 persulfide dioxygenase) | 0.5 | 0.29 | 0.43 | 0.76 |
| KRT2 (keratin 2) | -0.77 | -0.65 | -0.9 | -0.77 |
| MMRN1 (multimerin 1) | -0.88 | -0.91 | -0.69 | -1.04 |
| LOC391764 (retired record) | 0.22 | 0.22 | 0.35 | 0.08 |
| TMEM225 (transmembrane protein 225) | 0.48 | 0.2 | 0.84 | 0.4 |
| SERPINI2 (serpin family I member 2) | -0.23 | -0.05 | -0.64 | -0.01 |
| RPAP2 (RNA polymerase II associated protein 2) | 0.87 | 1.08 | 1.08 | 0.44 |
